{
  "source": "paper PMC4948679",
  "molecular_target": "superhumanized Ab2/3H6 variant with the single backmutation T98R (BM07)",
  "test": "BLI; ForteBio Octet QK; protein A biosensors, Ab2/3H6 variants captured from crude concentrated culture supernatants (1200 s), blocked with 100 µg/ml purified su3H6 (1200 s); purified 2F5 at 100 µg/ml in solution, association 600 s, dissociation 1200 s; kinetics buffer",
  "data": [
    {"substance": "broadly neutralizing anti-HIV-1 antibody 2F5", "values": [
      {"measurement": "response level", "result": 1.4, "unit": "nm"}
    ]}
  ]
}
